The text below walks through data of article PMC11852808.

Where two headings read alike, the source gives them in different places.

As to protein VII: K2AK3A, the localisation_or_trafficking entry is listed as “increases” (acetylation at K2) and “increases” (acetylation at K3).
